{"source": "ChEMBL document CHEMBL3244321", "about": "“Nitramino acids. Synthesis and biological evaluation of 1-nitroproline, 1-nitropipecolic acid, and N-nitrosarcosine” (J Med Chem, 1977)", "tested_on": "Mus musculus", "experiment": "Acute toxicity in ip dosed Swiss-Webster mouse measured after 72 hrs", "format": "organism-based", "settings": "in vivo", "data": [{"smiles": "CN(CC(=O)O)[N+](=O)[O-]", "values": [{"measurement": "LD50", "result": 1.84, "unit": "mmol/kg"}]}]}
